# In patent publication US20130303393A1 (RESEARCH DEVELOPMENT FOUNDATION, published 2013):
# Residue numbers refer to the chain shown, from its start.
# B1: YMB2 IgG (antibody, V domains shown)
# VH: EVQLQQSGAELVKPGASVKLSCTASGFNIKDTYMHWVKQRPEQGLEWIGRIDPENGNTKYDPKFQGKATITADTSSNTAYLQLSSLTSEDTAVYYCARFLITTGYFDYWGQGTTLTVSS
# VL: DIVLTQSHKFMSTSVGDRVSITCKASQDVGTAVAWYQQKPGQSPKLLIYWASTRHTGVPDRFTGSGSGTDFTLTISNVQSEDLADYFCQQYSSYPLTFGAGTKLEIKR
# B2: YMC3 IgG (antibody, V domains shown)
# VH: QVQLKQSGAELVKPGASVKLSCKASGYTFTSYDINWVRQRPEQGLEWIGWIFPGDGSTKYNEKFKGKATLTTDKSSSTAYMQLSRLTSEDSAVYFCARGGLYFDYWGQGTTLTVSS
# VL: DIQMTQSPSSLSASVGDRVTVTCRASQGIRNYLNWYQQKPGKAPKFLIYYTSRLLPGVPSRFSGSGSGTDYTLTINSLEQEDIATYYCQQGNTPPWTFGQGTKVEIKR
# B3: YMF10 IgG (antibody, V domains shown)
# VH: EVQLQQSGAELVRSGASVKLSCTASGFNIKDYYMHWVKQRPEQGLEWIGWIDPENGDTEYAPKFQGKATMSADTSSNTAYLQLSSLTSEDTAVYYCNAGTPFEGLRRADYWGQGTTLTVSS
# VL: B1 VL with L4M, I106L, K107N
# B4: YMD1 IgG (antibody, V domains shown)
# VH: B3 VH with Q5V, Q6E, S71T, R107K
# VL: B1 VL with L4M, F10L, K45R, S76T, L96Y, A100G
# B5: YMH2 IgG (antibody, V domains shown)
# VH: EVKLQQSGPELVKPGASVKISCKGSGYAISSSWMNWVKQRPGQGPEWIGRIYPGDGDTNYNGKFKGKATLTADKSSSTAYMQLSSLTSVDSAVYFCARGGLPYAVDYWGQGTSVTVSS
# VL: B2 VL
# B6: 26.10 IgG (antibody, V domains shown)
# VH: QVELQQSGPELVKPGASVRMSCKSSGYIFTDFYMNWVRQSHGKSLDYIGYISPYSGVTGYNQKFKGKATLTVDKSSSTAYMELRSLTSEDSAVYYCAGSSGNKWAMDYWGHGASVTVSS
# VL: DIVLTQSPASLAVSLGQRATISCRSSQSLVHSNGNTYLNWYQQKPGQPPKLLIYKVSNRFSGVPARFSGSGSESDFTLTIDPVEEDDAAIYYCSQTTHVPPTFGSGTKLEIKS
# notes: also called anti-digoxin 26.10 IgG
# Target: T1, Bacillus anthracis Protective Antigen (PA) (Bacillus anthracis, UniProt P13423 30-764)
# Assay: not given
row,Binder,M (FL1-Height)
1,B1,28
2,B2,37
3,B3,73
4,B4,46
5,B5,109

# Target: T1, Bacillus anthracis Protective Antigen …
# Assay: flow cytometry of NlpA-ZZ spheroplasts displaying the IgG, labeled with PA-FITC
row,Binder,binding result
1,B6,no binding (tested: 50 nM)
